Primary screen of a compound library

Source: ChEMBL document CHEMBL3988442, “University of Dundee, Small-Polar-MMV Screening Library” (2021).

The filed quantity is “Percent Effect” (%).
The controls that fix the scale are not given in the record; negative values are as filed.
The entries come from a sample that favours strong results.

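Growth of Mycobacterium tuberculosis over 3 days (7H9 medium with glucose and tyloxapol); the read-out is not stated. Compounds at 500 µM. The record gives no direction; compounds that gave an IC50 in retests scored well above the rest, so higher reads as more growth inhibition. About 18,000 compounds were tested under these conditions; 7.9% (about 1,400) showed 50% or more at least once.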

compound,Percent Effect
Cc1cnc(N2CCC(O)CC2)c(Br)c1,63.61%
CC1(C#N)CCNC1 (stereo not given),3.126%
COc1c(C(=O)N2CCOCC2)sc2ccc(F)cc12,53.22%
CCCn1cc(CNc2ccc(F)cn2)cn1,65.97%
Cc1cc(CNc2cc(C(N)=O)ccc2C)no1,31.45%
CNC(=O)CN(C)S(=O)(=O)c1cc(C)c(OC)cc1C,-13.28%
CSCCN(C)Cc1cn(-c2ccccc2)nn1,65.39%
Cc1nsc(N2CCCN(c3ccccn3)CC2)n1,44.79%
COCCC(CO)NC(=O)NCc1cc(Cl)ccc1C (stereo not given),41.42%
O=S(=O)(CC1CCCCC1)N[C@H]1CCCNC1,20.29%
c1nnc(C2CCNCC2)o1,7.588%
NCCNS(=O)(=O)c1cccc(I)c1,50.85%
CN1CCN(c2ccc(N)nc2)CC1,-18.55%
CC(CN)CC(F)(F)F (stereo not given),7.112%
CS(=O)(=O)c1nc2ccccc2n1CCC(N)=O,-2.454%
CC(C)c1noc(OCCNS(C)(=O)=O)n1,-17.84%
CSc1ccccc1C(=O)NCCN(C)C,3.954%
c1coc(C2CCCN2)c1 (stereo not given),44.62%
CC1CS(=O)(=O)CCN1C(=O)c1cccc2cc[nH]c12 (stereo not given),10.61%
CC(C)(C)CC(=O)Nc1nnc(-c2ccccn2)[nH]1,22.51%
Cc1ccc(F)cc1C(=O)N1CCSC1,18.37%
CN(c1ccc(C(=O)N2CCCCC2)cc1)S(C)(=O)=O,5.592%
CNCC1(O)CCCc2ccccc21 (stereo not given),-12.48%
NC(CO)c1cccc2ccccc12 (stereo not given),17.39%
Cc1nsc(NC2CCN(C)C2=O)n1 (stereo not given),-6.222%
Cn1cc(I)c(CN)n1,29.54%
CCOc1cccc(NC(=O)NC(C)(C)CCO)c1,37.84%
CCC(=O)N1CCN(C(=O)Cc2ccc(Br)s2)CC1,38.57%
CN1CC(C#N)CC1=O (stereo not given),0.04566%
NCc1ccc(N)nc1,8.193%
CCCC(O)(CCC)CC(=O)N1CCNC(=O)C1,-1.117%
CC1CCCN(CCNC(=O)CN(C)S(C)(=O)=O)C1 (stereo not given),-5.892%
COc1cc(OC)c(NC(=O)Cn2ccnc2)cc1Cl,72.67%
CNC(=O)CN1CCN(Cc2cncn2C(C)C)CC1,2.54%
O=C(NCC(c1ccco1)N1CCCC1)c1cnn[nH]1 (stereo not given),-1.618%
O=C(CC1Nc2ccccc2NC1=O)NC1CCCC1 (stereo not given),31.53%
OC1CCN(c2ccccn2)CC1,-2.135%
Cn1cc(C(N)=O)c(NC(=O)c2ccc(Br)cc2)n1,58.4%
OCC(O)CSCc1nc(-c2ccc(Cl)cc2)no1 (stereo not given),71.19%
CCOC(=O)c1csc(NC(=O)c2cnccn2)n1,-8.767%
Cc1cc(C)cc(C(=O)N2CCN(CCC#N)CC2)c1,11.58%
CC(NC(=O)CNc1cc(F)cc(Br)c1)C(=O)N(C)C (stereo not given),61.59%
COc1cccc(C(F)(F)CN)n1,-3.782%
CSc1ccc(CN)cc1,16.02%
O=C(NCCc1ccc(F)c(F)c1)N1CCCC(O)C1 (stereo not given),70.31%
CCC1(CO)CCCN1 (stereo not given),-15.67%
CC(=O)c1c[nH]c(C(=O)NC(C)Cc2ccco2)c1 (stereo not given),42.79%
COc1cc(F)cc(NCC(=O)NCc2ccco2)c1,74.97%
CN(C)[C@H]1CCN(C(=O)CCc2ccncc2)C1,-18.69%
CCOC(=O)c1cnc(SC2CCOC2=O)nc1N (stereo not given),-3.292%
CN1CCCN(Cc2nc(C3CCOC3)no2)CC1 (stereo not given),-2.574%
NCC(CO)Cc1ccsc1 (stereo not given),70.71%
CCOc1ncccc1C(=O)Nc1nnc[nH]1,-9.231%

For reference, 5 entries once more:

{"compound": "CNCC1(O)CCCc2ccccc21", "stereo": "stereo not given", "Percent Effect": -12.48}
{"compound": "NCCNS(=O)(=O)c1cccc(I)c1", "Percent Effect": 50.85}
{"compound": "CC1CCCN(CCNC(=O)CN(C)S(C)(=O)=O)C1", "stereo": "stereo not given", "Percent Effect": -5.892}
{"compound": "Cc1cc(CNc2cc(C(N)=O)ccc2C)no1", "Percent Effect": 31.45}
{"compound": "CCCC(O)(CCC)CC(=O)N1CCNC(=O)C1", "Percent Effect": -1.117}